Data published in patent publication US8034899B2, “HIV fusion inhibitor peptides with improved biological properties” (priority 2006, dated 2011).
For some of these results: Some results come without the dose or concentration used.

Columns and labels:
Type in all cases: cell-based, HIV
[1] = system: IIIB; assay: In vitro resistance selection in MT2 cells, cMAGI susceptibility, isolate IIIB; conditions: starting isolate IIIB, gp41 genotype
From the text: (§1) Assessment of biological properties included measurement of antiviral activity against HIV-1 strains. […] These assays score for reduction of infectious virus titer employing the indicator cell lines MAGI or the CCR5 expressing derivative cMAGI. Both cell lines exploit the ability of HIV-1 tat to transactivate the expression of a β-galactosidase reporter gene driven by the HIV-LTR. The β-gal reporter has been modified to localize in the nucleus and can be detected with the X-gal substrate as intense nuclear staining within a few days of infection. […] The number of infected cells for each control and peptide dilution was determined with the CCD-imager, and then the IC50 was calculated (expressed in μg/ml).
(§2) MT2 cells were infected with virus isolates (IIIB, 030, 060 and 098) and cultured in increasing concentrations of SEQ ID NO:2 (enfuvirtide) or SEQ ID NO:9 to select for resistance. […] Cultures were monitored for cytopathic effect (CPE) using standard techniques and when maximal CPE was achieved, a small aliquot of virus was used for subsequent rounds of infection. […] Peptide-free virus stocks were characterized for gp41 genotypic changes by dideoxy sequencing chemistries and phenotypic susceptibility was determined using a cMAGI infectivity assay.

[2] = system: 584.000030; assay: In vitro resistance selection in MT2 cells, cMAGI susceptibility, isolate 584.000030
From the text: as §1, §2

[3] = system: 584.000060; assay: In vitro resistance selection in MT2 cells, cMAGI susceptibility, isolate 584.000060
From the text: as §1, §2

[4] = system: virus isolates (IIIB, 030, 060 and 098); assay: In vitro resistance selection, geometric mean over the four isolates
From the text: MT2 cells were infected with virus isolates (IIIB, 030, 060 and 098) and cultured in increasing concentrations of SEQ ID NO:2 (enfuvirtide) or SEQ ID NO:9 to select for resistance. The initial peptide concentration was approximately 2 times the IC50 of each peptide against the corresponding wild type isolate. Peptide concentrations were maintained by adding fresh peptide every 1-3 days. Cultures were monitored for cytopathic effect (CPE) using standard techniques and when maximal CPE was achieved, a small aliquot of virus was used for subsequent rounds of infection. Peptide concentrations were increased 2 to 4-fold depending on the length of time in culture when compared to the growth rate of wild type virus. During the course of selection, peptide-free virus stocks were also collected. Peptide-free virus stocks were characterized for gp41 genotypic changes by dideoxy sequencing chemistries and phenotypic susceptibility was determined using a cMAGI infectivity assay.

## enfuvirtide
[1]
  # of Mutations Acquired: 2
[2]; starting isolate 584.000030
  Days in Culture: 46 days
[2]; starting isolate 584.000030, gp41 genotype
  # of Mutations Acquired: 2
[3]; starting isolate 584.000060
  Days in Culture: 46 days
[3]; starting isolate 584.000060, gp41 genotype
  # of Mutations Acquired: 2
[4]
  # of Mutations Acquired: 1.7
[4]; Geometric Mean of four isolates
  Days in Culture: 49 days
